PubChem BioAssay AID1259414 – Drosophila RNAi Screening Center – 2018

- Assay: 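Fly genes that alter Wolbachia amount inside host cells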 (primary screen)
- Cells: Drosophila JW18 cells infected with Wolbachia
- Reagent: long dsRNA against Drosophila genes, 0.25 µg dsRNA per well of a 384-well plate
- Time to read-out: 5 days
- Challenge: cells persistently infected with Wolbachia before knock-down; no added drug
- Measured: 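Automated imaging of bacterial rRNA staining divided by host cell count, reported as plate-normalised robust z-score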
- Scale: Wolbachia per cell robust z: higher = more Wolbachia per host cell than the plate typical
- Active means: 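Hit when robust z is 1.5 or more, or -1.5 or less, in at least two of three replicates; excludes dsRNAs with several or no targets, genes not expressed in JW18 and well A1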
The deposit covers about 24,000 reagents; below is a random part of those with a known target gene and a result. Of all reagents, about 1,210 (5%) got an active call. 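Inactive calls also include excluded dsRNAs with several or no targets, genes unexpressed in JW18, and well A1, regardless of score.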 Entries without a mark were called inactive. Names joined by + are all predicted targets of the reagent.

Gene	amplicon	Wolbachia per cell robust z, rep 1	Wolbachia per cell robust z, rep 2	Wolbachia per cell robust z, rep 3
mats (mob as tumor suppressor)	DRSC13562	-0.00271	-0.542	0.701
mats (mob as tumor suppressor)	DRSC14702	-0.00346	-2.55	-0.679
Mdr49 (Multi drug resistance 49)	DRSC07466	-1.18	-1.33	0.334
Mdr49 (Multi drug resistance 49)	DRSC24065	-0.379	0.718	-0.259
Dad	DRSC16642	-0.526	-0.285	-0.723
Dad	DRSC28345	-0.0763	-0.262	-0.335
CG3213	DRSC00576	1.71	2.42	2.65
CG3213	DRSC25106	1.67	3.17	2.49
CYLD (Cylindromatosis)	DRSC02870	-0.761	-0.334	-0.604
cype (cyclope)	DRSC02356	0.335	1.94	-0.289
CG7600	DRSC09681	0.561	-1.93	0.364
CG7600	DRSC25328	0.938	1.47	0.501
Phb2 (Prohibitin 2)	DRSC06512	1.29	-1.89	1.1
ND-B8 (NADH dehydrogenase (ubiquinone) B8 subunit)	DRSC00449	0.0859	-6.33	0.327
Syx16 (Syntaxin 16)	DRSC20507	2.12 (active)	3.04	1.56
Syx16 (Syntaxin 16)	DRSC27163	-4.82	0.443	0.615
CR31054 + CG4849	DRSC28625	-0.693	-1.55	-0.631
CG30043	DRSC06285	-0.942	0.0639	-2.38
CG12811	DRSC14549	-1.27	-0.642	-0.764
CG2121	DRSC06819	-0.573	0.352	-0.247
CG2121	DRSC06820	0.616	-0.329	-0.706
Mst89B	DRSC16748	-0.477	0.777	-0.556
CG5281	DRSC15761	0.52	0.38	0.507
CG5608	DRSC15841	-0.122	-0.815	-0.301
Strump (Strumpellin)	DRSC09872	0.439	1.15	0.151
CG18542 + CG32939	DRSC15342	0.553	0.133	0.594
Vha36-2 (Vacuolar H[+] ATPase 36kD subunit 2)	DRSC06294	-0.336	0.614	-0.00233
Vha36-2 (Vacuolar H[+] ATPase 36kD subunit 2)	DRSC29238	0.233	0.444	-1.08
Wnk (Wnk kinase)	DRSC23372	-0.898	-0.943	0.22
MED15 (Mediator complex subunit 15)	DRSC00267	0.0801	-1.37	-0.722
MED15 (Mediator complex subunit 15)	DRSC23615	0.331	0.662	-1.4
CG8838	DRSC00712	0.46	-1.67	-0.197
CG8838	DRSC27117	0.357	0.157	0.682
Megf8 (Multiple EGF like domains 8)	DRSC03058	-0.436	-0.301	-1.53
CG12395	DRSC19453	-0.611	0.552	-2.1
Oatp58Dc (Organic anion transporting polypeptide 58Dc)	DRSC04363	-0.219	0.415	0.274
Oatp58Dc (Organic anion transporting polypeptide 58Dc)	DRSC24688	-2.47	0.0683	0.549
Oatp58Dc (Organic anion transporting polypeptide 58Dc)	DRSC39040	-0.425	0.115	0.637
CARPB (Carbonic anhydrase-related protein B)	DRSC18437	0.58	0.426	0.257
CARPB (Carbonic anhydrase-related protein B)	DRSC18438	-1.3	0.454	0.363
NC2alpha (Negative Cofactor 2alpha)	DRSC04059	-0.218	-0.323	0.262
NC2alpha (Negative Cofactor 2alpha)	DRSC25348	-0.0107	0.593	0.0992
CG9917	DRSC20218	-0.383	-7.64	-0.912
Mlp84B (Muscle LIM protein at 84B)	DRSC12596	0.203	0.0975	-1.16
Gr21a (Gustatory receptor 21a)	DRSC00366	1.21	-2.9	0.593
Gr21a (Gustatory receptor 21a)	DRSC28583	-0.0695	0.674	-0.0976
CG7730	DRSC10909	0.585	0.676	-0.309
NijC (Ninjurin C)	DRSC14851	0.00745	-1.75	-6.68
NijC (Ninjurin C)	DRSC29054	-0.788	0.49	0.349
CG3909	DRSC14150	-1.51	-0.00763	0.0933
p120ctn (p120 catenin)	DRSC07753	0.338	-0.538	-0.374
asun (asunder)	DRSC16733	-0.0734	-0.163	0.186
Mgat1	DRSC07463	0.846	0.904	1.19
IntS3 (Integrator 3)	DRSC21215	1.07	0.605	1.04
Ubc7 (Ubiquitin conjugating enzyme 7)	DRSC20299	-1.25	-0.0691	-2.84
Or71a (Odorant receptor 71a)	DRSC11244	-0.076	0.0569	-1.1
Cpr50Cb (Cuticular protein 50Cb)	DRSC06975	-3.01	1.01	0.0363
Cpr50Cb (Cuticular protein 50Cb)	DRSC25171	-0.514	-0.587	-0.934
Cyp4aa1 (Cytochrome P450 4aa1)	DRSC07368	0.541	0.169	-0.553
Cyp4aa1 (Cytochrome P450 4aa1)	DRSC27648	-0.596	-1.32	-0.852
epsilonTry (epsilonTrypsin)	DRSC07611	0.482	0.78	-1.27
epsilonTry (epsilonTrypsin)	DRSC25110	-0.935	0.5	-0.77
CG32713 + CG33223	DRSC28559	0.00298	-0.758	-0.602
Mmp1 (Matrix metalloproteinase 1)	DRSC04493	0.658	1.17	0.709
CG12645	DRSC17851	0.857	0.52	0.295
CG12645	DRSC24406	-0.111	-1.08	-0.0316
CG33723	DRSC37809	0.466	-0.87	1.65
Rsbp15 (Radial spoke binding protein 15)	DRSC14176	-1.74	-0.579	-0.264
Rsbp15 (Radial spoke binding protein 15)	DRSC29051	0.782	1.17	0.17
